Values from PubChem BioAssay AID504761 (Drosophila RNAi Screening Center, 2011)
The deposit covers about 22,000 reagents; below is a random part of those that have a named target and a result. Over the whole deposit, 116 (0.52%) are marked active. 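Calls depend on retest data that are not deposited; infection was ranked per plate without normalising between plates; the unit of the infection score is not given.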 Raw values are not corrected between plates. Names joined by + are all predicted targets of the reagent. Not all columns of the deposit are shown. Reagent sequences are not shown. Not stated in the record: the amount of reagent, the time to read-out.

Aim: 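Fly genes whose silencing reduces dengue virus type 2 infection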 (primary screen)
Cells: D.Mel-2 cells from Drosophila
Reagent: long dsRNA against Drosophila genes
Conditions: infection with dengue virus type 2; dose and infection time not stated
Detection: 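Cells stained for dengue envelope protein and imaged; percent of infected cells per well on duplicate plates, ranked by infection, with stained nuclei counted for cell number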
Direction: infection score: higher = more virus-infected cells; cell count: higher = more cells in the well
Hit rule: 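Low infection ranks in the two replicates (chance level up to 0.065) followed by a retest with a 1.5-fold or larger significant decrease, p below 0.05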
Meaning of the calls: active = confirmed: knock-down lowers infection; inactive = not picked or not confirmed

target	DRSC id	infection score, replicate 1	infection score, replicate 2	cell count, replicate 1	Call
SrpRalpha (Signal recognition particle receptor alpha)	DRSC20251	1.78	7.18	5902	inactive
Or67a (Odorant receptor 67a)	DRSC11240	2.89	2.64	6086	inactive
Lgr3 (Leucine-rich repeat-containing G protein-coupled receptor 3)	DRSC15704	6.34	7.68	5488	inactive
Lgr3 (Leucine-rich repeat-containing G protein-coupled receptor 3)	DRSC15706	9.79	3.88	5630	inactive
CG4259	DRSC00645		4.41	374	inactive
CG4259	DRSC29614	0.41	24.7	243	inactive
mRpL45 (mitochondrial ribosomal protein L45)	DRSC16146	3.57	24.3	5096	inactive
Tsp29Fa (Tetraspanin 29Fa)	DRSC03232	2.14	1.06	5923	inactive
Tsp29Fa (Tetraspanin 29Fa)	DRSC28522	18.8	7.97	4006	inactive
X11L	DRSC19958	6.11	14.9	6172	inactive
X11L	DRSC19959	7.81	8.46	6645	inactive
X11L	DRSC25616	1.17	7.79	6407	inactive
c12.2	DRSC18751	2.53	3.17	6528	inactive
c12.2	DRSC26390	0.81	0.96	6153	inactive
CG13708	DRSC08317	3.71	3.22	5963	inactive
CG17145	DRSC10247	4.77	3.78	6729	inactive
CG17199	DRSC15192	1.48	5.23	6429	inactive
tsh (teashirt)	DRSC03740	5.66	16.4	6145	inactive
scrt (scratch)	DRSC23001	1.12	3.2	5807	inactive
scrt (scratch)	DRSC25792	1.86	2.09	6521	inactive
PNUTS (Phosphatase 1 nuclear targeting subunit)	DRSC00638	4.73	3.33	6708	inactive
PNUTS (Phosphatase 1 nuclear targeting subunit)	DRSC23503	5.29	6.13	6499	inactive
CG12963	DRSC06265	12.2	7.19	6753	inactive
CG31093	DRSC15689	0.63	2.1	6530	inactive
ArfGAP3 (ADP-ribosylation factor GTPase activating protein 3)	DRSC11794	11.3	7.26	5051	inactive
ArfGAP3 (ADP-ribosylation factor GTPase activating protein 3)	DRSC25639	8.01	15.3	6203	inactive
CG9993	DRSC04599	5.85	8.26	6567	inactive
Ugt37A1 (UDP-glycosyltransferase family 37 member A1)	DRSC02114	4.53	5.08	6113	inactive
CG15728	DRSC19694	2.47	1.86	6838	inactive
CG15728	DRSC22868	3.08	2.06	6096	inactive
CG15728	DRSC28662	17.4	12.4	5943	inactive
CG4537	DRSC02756	5.57	6.63	6389	inactive
mthl6 (methuselah-like 6)	DRSC10234	4.98	1.93	6042	inactive
Ir94f (Ionotropic receptor 94f)	DRSC13621	5.46	3.77	6185	inactive
CG15356	DRSC00386	8.06	6.79	5982	inactive
Jon74E (Jonah 74E)	DRSC10617	4.17	3.16	6232	inactive
Jon74E (Jonah 74E)	DRSC23947	7.84	2.04	5959	inactive

10 entries from above, showing only “cell count, replicate 1”:
PNUTS (Phosphatase 1 nuclear targeting subunit) [DRSC00638] = 6708
PNUTS (Phosphatase 1 nuclear targeting subunit) [DRSC23503] = 6499
CG12963 [DRSC06265] = 6753
CG31093 [DRSC15689] = 6530
ArfGAP3 (ADP-ribosylation factor GTPase activating protein 3) [DRSC11794] = 5051
ArfGAP3 (ADP-ribosylation factor GTPase activating protein 3) [DRSC25639] = 6203
CG9993 [DRSC04599] = 6567
Ugt37A1 (UDP-glycosyltransferase family 37 member A1) [DRSC02114] = 6113
CG15728 [DRSC19694] = 6838
CG15728 [DRSC22868] = 6096

More results follow:
target	DRSC id	infection score, replicate 1	infection score, replicate 2	cell count, replicate 1	Call
Obp56i (Odorant-binding protein 56i)	DRSC05812	0.7	2.09	6387	inactive
CG2926	DRSC12321	4.75	1.92	5154	inactive
Nak (Numb-associated kinase)	DRSC03379	16.5	8.14	6748	inactive
Nak (Numb-associated kinase)	DRSC27565	10.4		6554	inactive
Gbp3 (Growth-blocking peptide 3)	DRSC15206	0.34	1.57	6545	inactive
CG12546	DRSC11676	3.94	3.12	6832	inactive
Jon99Fii + Jon99Cii + Jon99Ciii + 1 more	DRSC15298			298	inactive
Su(var)2-HP2	DRSC06204	8.16	14.6	5918	inactive
Su(var)2-HP2	DRSC29542	27	12.8	5210	inactive
CG15279	DRSC01935	13.5	27.7	6178	inactive
CG15279	DRSC27347	24.1	21.1	6648	inactive
Zn72D (Zinc-finger protein at 72D)	DRSC11318	3.37	19.7	7214	inactive
loqs (loquacious)	DRSC02997	9.53	7.37	4764	inactive
YME1L (YME1 like ATPase)	DRSC04378	5.65	15.2	5716	inactive
Duox (Dual oxidase)	DRSC27209	3.79	3.49	6365	inactive
CG15109	DRSC06536	2.3	3.78	6228	inactive
CG15109	DRSC26040	12.2	3.13	6457	inactive
lncRNA:CR30009 (long non-coding RNA:CR30009)	DRSC22952	1.78	1.04	6277	inactive
lncRNA:CR30009 (long non-coding RNA:CR30009)	DRSC29817	8.73	4.06	5879	inactive
CG17470	DRSC02621	15.5	12.5	6688	inactive
CG11961	DRSC06099	8.98	6.01	4990	inactive
